System: G3BP1-YFP
Test: AP-MS of G3BP1-YFP with N wt or N 3A peptide competition
Set-up: species or system Human

B1: POM121C (protein, UniProt A8CG34 1-1229, looked up)
Nuclear envelope pore …: MSPAAAAAGAGERRRPIASVRDGRGRGCGGPAGAALLGLSLVGLLLYLVPAAAALAWLAVGTTAAWWGLSREPRGSRPLSSFVQKARHRRTLFASPPAKSTANGNLLEPRTLLEGPDPAELLLMGSYLGKPGPPQPAPAPEGQDLRNRPGRRPPARPAPRSTPPSQPTHRVHHFYPSLPTPLLRPSGRPSPRDRGTLPDRFVITPRRRYPIHQTQYSCPGVLPTVCWNGYHKKAVLSPRNSRMVCSPVTVRIAPPDRRFSRSAIPEQIISSTLSSPSSNAPDPCAKETVLSALKEKKKKRTVEEEDQIFLDGQENKRRRHDSSGSGHSAFEPLVASGVPASFVPKPGSLKRGLNSQSSDDHLNKRSRSSSMSSLTGAYTSGIPSSSRNAITSSYSSTRGISQLWKRNGPSSSPFSSPASSRSQTPERPAKKIREEELCHHSSSSTPLAADKESQGEKAADTTPRKKQNSNSQSTPGSSGQRKRKVQLLPSRRGEQLTLPPPPQLGYSITAEDLDLEKKASLQWFNQALEDKSDAASNSVTETPPTTQPSFTFTLPAAATASPPTSLLAPSTNPLLESLKKMQTPPSLPPCPESAGAATTEALSPPKTPSLLPPLGLSQSGPPGLLPSPSFDSKPPTTLLGLIPAPSMVPATDTKAPPTLQAETATKPQATSAPSPAPKQSFLFGTQNTSPSSPAAPAASSASPMFKPIFTAPPKSEKEGLTPPGPSVSATAPSSSSLPTTTSTTAPTFQPVFSSMGPPASVPLPAPFFKQTTTPATAPTTTAPLFTGLASATSAVAPITSASPSTDSASKPAFGFGINSVSSSSVSTTTSTATAASQPFLFGAPQASAASFTPAMGSIFQFGKPPALPTTTTVTTFSQSLPTAVPTATSSSAADFSGFGSTLATSAPATSSQPTLTFSNTSTPTFNIPFGSSAKSPLPSYPGANPQPAFGAAEGQPPGAAKPALTPSFGSSFTFGNSAAPAPATAPTPAPASTIKIVPAHVPTPIQPTFGGATHSAFGLKATASAFGAPASSQPAFGGSTAVFSFGAATSSGFGATTQTASSGSSSSVFGSTTPSPFTFGGSAAPAGSGSFGINVATPGSSATTGAFSFGAGQSGSTATSTPFTGGLGQNALGTTGQSTPFAFNVGSTTESKPVFGGTATPTFGQNTPAPGVGTSGSSLSFGASSAPAQGFVGVGPFGSAAPSFSIGAGSKTPGARQRLQARRQHTRKK
T-test Difference (Mutant vs WT inhibitor, log2) (Peptide inhibitor competition, host protein co-purified, mutant vs WT inhibitor, 4 replicates each): 7.61 log2
Student's T-test Difference mut_wt (same quantity as T-test Difference column, unrounded): 7.607
